In assay [1] the target is PCoV_GX spike ectodomain (1-1205), 2P (pangolin coronavirus PCoV_GX).
Assay [2] has as its target RaTG13 spike ectodomain (1-1209), 2P (bat coronavirus RaTG13).

As a reminder, the stoichiometry N is the number of molecules, sites or subunits per partner or assembly. As to PCoV_GX spike ectodomain (1-1205), 2P, in assay [1], the stoichiometry N is 3. The substance RaTG13 spike ectodomain (1-1209), 2P displayed a stoichiometry N in assay [2] of 3.

The values above are taken from PMC7952905, “Bat and pangolin coronavirus spike glycoprotein structures provide insights into SARS-CoV-2 evolution” (2021).
